Results of unrelated studies side by side (data: NIAID ChemDB).

Common to all: host cell toxicity; cell line: VERO; read-out: CC50

Blank or dashed fields: not listed here. CCn: concentration that lowers growth or viability of the cells by n%. Rows are shuffled and stem from different studies.

| smiles | method | value |
|---|---|---|
| O=C(O)c1c2n(c3cc(N4CCC(O)(c5ccc(Cl)cc5)CC4)c([N+](=O)[O-])cc3c1=O)CS2 | MTT | 64.03 µM |
| CC(C1=NNC(=Nc2ccccc2)SC1)N1C(=O)c2ccccc2C1=O | - | 1000 µg/mL |
| Cc1ncccc1Nc1cc2nc3ccccc3n(-c3ccc(Cl)cc3)c-2cc1=NC1CCOCC1 | MTT | 9.73 µg/mL |
| COc1cc2ccnc3c2c(c1OCCCCCCOc1c(OC)cc2ccnc4c2c1N(C)C=C4)N(C)C=C3 | - | 1.2 µM |
| COc1ncccc1Nc1cc2nc3ccccc3n(-c3ccc(F)cc3)c-2cc1=NC1CC1 | MTT | >64 µg/mL |
| CC(C1=NN=C(N(C)c2ccccc2)SC1)N1C(=O)c2ccccc2C1=O | - | 192 µg/mL |
| CSc1nsc(-c2ccccc2)c1C#N | - | 20 µM |
| COc1ccc2c(N/N=C/c3ccc4c(c3)OCO4)cc(C)nc2c1 | - | 5.4 µg/mL |
| CSc1nsc(-c2ccc(OCc3ccccc3)cc2)c1C#N | - | >50 µM |
| Oc1c(N=NC(=S)Nc2ccc(Br)cc2)c2cc(OC(F)(F)F)ccc2n1CN1CCOCC1 | MTT | 7.453 µg/mL |
| CCCCCCCCCN1C=Cc2nccc3cc(OC)c(OC)c1c23 | - | 2.1 µM |
| CC(C1=NNC(=Nc2ccccc2)SC1)N1C(=O)c2cccc([N+](=O)[O-])c2C1=O | - | 481 µg/mL |
| CC(C)(C)NC(=O)C1c2ccccc2CCN1c1cc2c(cc1F)c(=O)c(C(=O)O)c1n2CS1 | MTT | 130 µM |
| COc1cc(/C=C/c2ccccc2)oc(=O)c1 | - | >102 µg/mL |
| COc1c(N2CCNC(C)C2)c(F)cc2c(=O)c(C(=O)O)cn(C3CC3)c12 | MTT | >155.3 µM |
| Cc1ccc2[nH]c(O)c(N=NC(=S)Nc3ccccc3)c2c1 | MTT | 1.063 µg/mL |
| CCN(CC)c1ccc(/C=N/Nc2cc(C)nc3ccc(C4CCCCC4)cc23)cc1 | - | 12.1 µg/mL |
| CCCCCCCCS(=O)(=O)Oc1c(OC)cc2ccnc3c2c1N(C)C=C3 | - | 13.4 µM |
| CC(C1=NN=C(N(C(=O)c2ccccc2)c2ccccc2)SC1)N1C(=O)c2ccccc2C1=O | - | 192 µg/mL |
| CC(C)(C)c1cn([C@H]2C[C@H](O)[C@@H](CO)S2)c(=O)[nH]c1=O | - | 475 µM |
| CCCCCCCCCCCCN1C=Cc2nccc3cc(OC)c(OC)c1c23 | - | <1 µM |
| C=C(C)c1cn([C@H]2C[C@H](O)[C@@H](CO)S2)c(=O)[nH]c1=O | - | >100 µM |
| Cc1ccc2[nH]c(O)c(N=NC(=S)Nc3ccc(Cl)cc3)c2c1 | MTT | 12.4 µg/mL |
| CSc1nsc(-c2ccccc2Cl)c1C#N | - | 5 µM |
| O=C(O)c1c2n(c3cc(N4CCN(Cc5ccc6c(c5)OCO6)CC4)c([N+](=O)[O-])cc3c1=O)CS2 | MTT | 126 µM |
| CCN(CC)C(=O)c1ccc2nc3ccccc3c(NCCc3c[nH]c4ccccc34)c2c1 | - | 45 µM |
| O=c1[nH]c(=O)n([C@H]2C[C@H](O)[C@@H](CO)S2)cc1C(F)(F)F | - | >500 µM |
| COc1cc(/C=C/C(=O)NCCc2ccc(O)cc2)ccc1O | - | >102 µg/mL |
| O=C(O)c1c2n(c3cc(N4CCC5(CC4)OCCO5)c(F)cc3c1=O)CS2 | MTT | >159 µM |
| CCOc1ccc2c(N/N=C/c3c(OC)ccc4ccccc34)cc(C)nc2c1 | - | 6.9 µg/mL |
| CCC(C)c1cn([C@H]2C[C@H](O)[C@@H](CO)S2)c(=O)[nH]c1=O | - | >500 µM |
| Oc1[nH]c2ccc(OC(F)(F)F)cc2c1N=NC(=S)Nc1ccc(F)cc1 | MTT | 2.536 µg/mL |
| CC(C)[C@@H]1NC(=O)[C@@H](C(C)C)OC(=O)[C@H](C(C)C)N(C)C(=O)[C@@H](C(C)C)OC(=O)[C@H](C(C)C)N(C)C(=O)[C@@H](C(C)C)OC1=O | absorbance | 13 µM |
| CCCCc1ccc2nc(C)cc(NN)c2c1 | - | 13.4 µg/mL |
| C#Cc1cn([C@H]2C[C@H](O)[C@@H](CO)S2)c(=O)[nH]c1=O | - | 33 µM |
| COc1ccc2c(N/N=C/c3c(OC)ccc4ccccc34)cc(C)nc2c1 | - | 23 µg/mL |
| COc1cc(CCc2ccc3c(c2)OCO3)oc(=O)c1 | - | 41.96 µg/mL |
| CN1CCN(C(=O)c2ccc3nc4ccccc4c(NCCc4c[nH]c5ccccc45)c3c2)CC1 | - | 45 µM |
| N#Cc1c(Cl)nsc1Cl | - | 4 µM |
| C[C@@]1(O)[C@@H](CO)O[C@@H](n2cnc3c(N)ncnc32)[C@@H]1O | - | 20 µg/mL |
| O=C(O)c1c2n(c3cc(N4CCC(n5c(=O)[nH]c6cc(Cl)ccc65)CC4)c(F)cc3c1=O)CS2 | MTT | >125 µM |
| O=c1ccn([C@@H]2O[C@H](CO)[C@](O)(C(F)(F)F)[C@H]2O)c(=O)[nH]1 | - | >200 µg/mL |
| COc1cc2cc[n+](CCC(C)C)c3c2c(c1OC)NC=C3 | - | 17.2 µM |
| COC1c2ccccc2C(=O)N1C(C)C1=NNC(=Nc2ccccc2)SC1 | - | 160 µg/mL |
| CCCS(=O)(=O)Oc1c(OC)cc2ccnc3c2c1N(C)C=C3 | - | 9 µM |
| CN1CCN(C(=O)c2ccc3nc4ccccc4c(Oc4ccccc4)c3c2)CC1 | - | 40 µM |
| O=C1c2ccccc2C(=O)N1CCCC1=NNC(=Nc2ccccc2)SC1 | - | 192 µg/mL |
| CCCCN1C=Cc2nccc3cc(OC)c(OC)c1c23 | - | 11.8 µM |